Compound potency records, mixed from different reports. Data source: NIAID ChemDB in PubChem.

Shared fields: cytotoxicity tests; endpoint: CC50

Two numbers with a dash give a range or band.

compound | cell line | method | result
CCCCCc1ccc2ccccc2n1 | CEM-4fx | MTT | 7.5 µM
COc1ccc2c(c1)C(=O)C(Cl)=C(C1=C(O)c3ccccc3C(=O)C1=O)C2=O | CEM | MTT | 12 µM
CC(C)CN(C[C@@H](O)[C@H](Cc1ccccc1)NC(=O)[C@]12CC[C@@H](C)[C@H](C)[C@H]1C1=CC[C@@H]3[C@@]4(C)CC[C@@H](O)C(C)(C)[C@@H]4CC[C@@]3(C)[C@]1(C)CC2)S(=O)(=O)c1ccc([N+](=O)[O-])cc1 | HUVEC | absorbance | >100 µM
CCOC(OCC)C1=NCCc2cc(OC)c(OC)cc21 | RAJI | - | <7.5 µM
CCOC(=O)C1=C(CN2CCOCC2)NC(C2=NC=CC2)=NC1c1ccc(F)cc1Br | Primary human hepatocytes | MTT | 115 µM
CCCc1ccc2ccccc2n1 | CEM-4fx | MTT | 84 µM
Cc1cc(Cl)ccc1NC(=O)Nc1cccc(C2=NNC(=O)C2(C)C)c1 | NHDF | - | >5 µM
C=CCCC1=NCC(O[Si](C)(C)C(C)(C)C)c2cc(OC)c(OC)cc21 | RAJI | - | <7.5 µM
O=C(NCCCl)Oc1ccc(Br)cc1C(=O)Nc1ccc(C(=O)c2ccccc2)cc1 | Mono Mac 6 | MTT | 24.9 µM
O=c1[nH]c(=O)n([C@H]2C[C@H](O)[C@@H](CO)O2)cc1/C=C/Br | NIH 3T3 | cell count | 18 µM
CC(C)C[C@@H]1NC(=O)[C@H](Cc2ccccc2)NC(=O)[C@@H](CCCCN)NC(=O)[C@H](CC(N)=O)NC(=O)[C@H](C(C)C)NC(=O)[C@@H](CC(C)C)NC1=O | Colorectal carcinoma | MTT | >30 µM
CS(=N)(=O)c1ccc(C(=O)NC2CC3(C2)CC(c2nc4cc(Cl)ccc4o2)C3)o1 | Primary human hepatocytes | absorbance | >100 µM
COc1cc2c(cc1[C@@H](C)N(C)c1ccccc1)C=CC(C)(C)O2 | L6 rat skeletal myoblasts | - | 46.3 µM
C=C(C)[C@@H]1CC[C@]2(C(=O)N[C@@H](Cc3ccccc3)[C@H](O)CN(CC(C)C)S(=O)(=O)c3ccc([N+](=O)[O-])cc3)CC[C@]3(C)[C@H](CC[C@@H]4[C@@]5(C)CC[C@H](O)C(C)(C)[C@@H]5CC[C@]43C)[C@@H]12 | HUVEC | absorbance | >100 µM
CCN(CC)C(=O)OCC1CN(C(=O)c2ccccc2)CCN1C(=O)c1ccccc1 | MDM | neutral red | >100 µM
CC[C@H](C)[C@H](N)[C@H](O)n1nc(C)c2c(Cl)c3cc(OC)ccc3nc21 | FS-85 | - | >100 µg/mL
CC(C)C[C@@H]1NC(=O)[C@H](Cc2c[nH]c3ccccc23)NC(=O)[C@@H](C(C)(C)C)NC(=O)[C@H](CCCCN)NC(=O)[C@H](C(C)C)NC(=O)[C@@H](CC(C)C)NC1=O | Colorectal carcinoma | MTT | >30 µM
Nc1ccn([C@@H]2O[C@@H](CO)[C@@H](O)[C@@H]2O)c(=O)n1 | FLOW 2002 | - | >100 µg/mL
CC1(C)C(=O)NN=C1c1cccc(NC(=O)Nc2ccc(F)c(Cl)c2)c1 | NHDF | - | >10 µM
Nc1ncnc2c1ncn2C/C=C(/CO)c1ccccc1 | CCL18 | - | >100 µg/mL
CC(C)C[C@@H]1NC(=O)[C@H](Cc2c[nH]c3ccccc23)NC(=O)[C@@H](CCCNC(N)=O)NC(=O)[C@H](CC(N)=O)NC(=O)[C@H](C(C)C)NC(=O)[C@@H](CC(C)C)NC1=O | Colorectal carcinoma | MTT | >30 µM
COc1cc2c(cc1[C@@H](C)Nc1ccccc1)C=CC(C)(C)O2 | L6 rat skeletal myoblasts | - | 16.7 µM
O[C@@H]1[C@@H](O)[C@H](Oc2ccccc2)O[C@H](CCl)[C@H]1O | LLC-MK2 | - | 580 µM
CCN(CC)C(=O)OCC1CN(Cc2ccccc2)CCN1Cc1ccccc1 | MDM | neutral red | ≥100 µM
OC[C@H]1O[C@@H](Oc2ccc(Cl)cc2)[C@H](O)[C@@H](O)[C@@H]1O | LLC-MK2 | - | 650 µM
COc1ccc(S(=O)(=O)N(CC(C)C)C[C@@H](O)[C@H](Cc2ccccc2)NC(=O)[C@]23CC[C@@H](C)[C@H](C)[C@H]2C2=CC[C@@H]4[C@@]5(C)C[C@@H](O)[C@@H](O)[C@@](C)(CO)[C@@H]5CC[C@@]4(C)[C@]2(C)CC3)cc1 | HUVEC | absorbance | >100 µM
CC(C)C[C@@H]1NC(=O)[C@H](Cc2c[nH]c3ccccc23)NC(=O)[C@@H](CCCCN)NC(=O)[C@H](CC(N)=O)NC(=O)[C@H](C(C)C)NC(=O)[C@@H]2CCCN2C1=O | Colorectal carcinoma | MTT | >30 µM
O=C(Oc1ccc(Cl)cc1C(=O)Nc1ccc(C(F)(F)F)cc1)c1cnc(Cl)cn1 | Mono Mac 6 | MTT | 1.1 µM
CC(C)c1ccc2ccccc2n1 | CEM-4fx | MTT | 5.9 µM
CCN(CC)C(=O)OCC1CN(C(C#N)(c2ccccc2)c2ccccc2)CCN1C(=O)c1cc(OC)c(OC)c(OC)c1 | MDM | neutral red | ≥100 µM
C=C(C)[C@@H]1CC[C@]2(C(=O)N[C@@H](Cc3ccccc3)[C@H](O)CN(CC(C)C)S(=O)(=O)c3ccc(N)cc3)CC[C@]3(C)[C@H](CC[C@@H]4[C@@]5(C)CC[C@H](O)C(C)(C)[C@@H]5CC[C@]43C)[C@@H]12 | HUVEC | absorbance | >100 µM
CC(C)N(Cc1cccc(OCCCCCC(=O)OC(=O)O)c1)C(=O)c1ccc(-c2cccc(S(C)(=O)=O)c2)cc1 | BJ | - | >20 µM
COC(=O)/C=C/c1ccc2cc(C)ccc2n1 | CEM-4fx | MTT | 30.6 µM
O=C1C(=O)c2ccccc2C(O)=C1C1=C(I)C(=O)c2ccccc2C1=O | CEM | MTT | 5 µM
O=c1[nH]cnc2c1ncn2C/C=C(/CO)c1ccccc1 | CCL18 | - | >100 µg/mL
CCc1ccnc(Nc2ccc(C#N)c(Oc3cccc(/C=C/C#N)c3)c2)n1 | MT-2 | - | 0.36 µM
CCN(CC)C(=O)OCC1CN(C(=O)c2cc(OC)c(O)c(OC)c2)CCN1C(=O)c1cc(OC)c(O)c(OC)c1 | MDM | neutral red | >100 µM
CC(=O)N1c2ccccc2NC2=C(C(=O)CC(C)(C)C2)C1c1ccc(Cl)cc1Cl | Huh7-CMV-Luc | - | >32 µM
O=C(NCCCl)Oc1ccc(Cl)cc1C(=O)Nc1ccc(C(=O)c2ccccc2)cc1 | Mono Mac 6 | MTT | 37.8 µM
CC(C)C[C@@H]1NC(=O)[C@H](Cc2c[nH]c3ccccc23)NC(=O)CNC(=O)[C@H](CO)NC(=O)[C@H](C(C)C)NC(=O)[C@@H](CC(C)C)NC1=O | Lung carcinoma cells | MTT | >30 µM
CC1(C)C(=O)NN=C1c1cccc(NC(=O)Nc2ccc(F)c(F)c2)c1 | NHDF | - | >20 µM
CCOC(=O)CCCCCOc1cccc(CN(C(=O)c2ccc(-c3cccc(Oc4ccccc4)c3)cc2)C(C)C)c1 | RAJI | - | 13.5–20 µM
CC(O)Cc1ccc2cccc(O)c2n1 | CEM-4fx | MTT | 4.5 µM
N#Cc1ccc(Nc2nccc(C3CC3)n2)cc1Sc1ccccc1 | MT-2 | - | 0.039 µM
NC1=NC2C(C=CN2CC(CO)CCO)C(=O)N1 | P3HR-1 | cell count | >200 µM
C[C@@H](Nc1ccccc1)c1cc2c(cc1O)OC(C)(C)C=C2 | L6 rat skeletal myoblasts | - | 18.8 µM
COc1ccnc(Nc2ccc(C#N)c(Oc3cccc(Cl)c3)c2)n1 | MT-2 | - | >100 µM
COc1cc2c(cc1OC)C1(CC=CCC1)N(C(C)=O)CC2 | RAJI | - | <7.5 µM
O=C(Oc1ccc(Cl)cc1C(=O)Nc1ccc(Cl)c(Cl)c1)c1cnc(Cl)cn1 | Mono Mac 6 | MTT | 10.1 µM
COc1ccnc(Nc2ccc(Cl)c(Oc3cc(Cl)cc(Cl)c3)c2)n1 | MT-2 | - | 4.3 µM
O=C1C(Cl)=C(C2=C(Cl)C(=O)c3ccccc3C2=O)C(=O)c2ccccc21 | CEM | MTT | 5.4 µM
O=C(Oc1ccc(Br)cc1C(=O)Nc1ccc(C(F)(F)F)cc1)c1cnc(Cl)cn1 | Mono Mac 6 | MTT | 1.1 µM
O=C(Nc1cccc(Cl)c1)Nc1cccc(-c2n[nH]c(=O)n2C2CCCCC2)c1 | NHDF | - | 31 µM
CCN(CC)C(=O)OCC1CN(C(=O)c2ccncc2)CCN1C(=O)c1ccncc1 | MDM | neutral red | >100 µM
Nc1nc(=O)n([C@H]2C[C@H](O)[C@@H](CO)O2)cc1/C=C/Cl | NIH 3T3 | cell count | 216 µM
CCN(CC)C(=O)OCC1CN(C(=O)c2ccc(OC)c(OC)c2)CCN1C(=O)c1ccc(OC)c(OC)c1 | MDM | neutral red | >100 µM
C(#Cc1cnc2ccccc2c1)CCC#Cc1cnc2ccccc2c1 | CEM-4fx | MTT | 168 µM
CCOC(=O)CCCCCOc1cccc(CN(C(=O)c2ccc(-c3ccc(C(C)=O)s3)cc2)C(C)C)c1 | BJ | - | >20 µM
C[C@H]1[C@@H](OC(=O)CCC(=O)O)O[C@@H]2O[C@@]3(C)CC[C@H]4[C@H](C)CC[C@@H]1[C@@]24OO3 | PM1 | - | >0.6 µM
COCc1ccc(C(=O)NC2CC3(C2)CC(c2nc4cc(Cl)ccc4o2)C3)o1 | Primary human hepatocytes | absorbance | 94.2 µM
O=C(NCc1ccc(Cl)cc1)c1c[nH]c2c(F)cccc2c1=O | REF | - | >100 µM
CC(C)CN(C[C@@H](O)[C@H](Cc1ccccc1)NC(=O)[C@]12CCC(C)(C)C[C@H]1C1=CC[C@@H]3[C@@]4(C)CC[C@@H](O)C(C)(C)[C@@H]4CC[C@@]3(C)[C@]1(C)CC2)S(=O)(=O)c1ccc(N)cc1 | HUVEC | absorbance | 86.85 µM
COc1ccnc(Nc2ccc(C#N)c(Oc3cc(Cl)cc(Cl)c3)c2)n1 | MT-2 | - | 0.27 µM
CC(C)C[C@@H]1NC(=O)[C@H](Cc2c[nH]c3ccccc23)NC(=O)[C@@H](CCCCN)NC(=O)[C@H](CC(N)=O)NC(=O)[C@H](C(C)C)NC(=O)[C@@H](CC(C)C)N(C)C1=O | Lung carcinoma cells | MTT | >30 µM
O=C(NCCCCl)Oc1ccc(Cl)cc1C(=O)Nc1ccc(C(=O)c2ccccc2)cc1 | Mono Mac 6 | MTT | 16.1 µM
NS(=O)(=O)c1ccc(C(=O)NC2CC3(C2)CC(c2nc4cc(Cl)ccc4o2)C3)o1 | Primary human hepatocytes | absorbance | >100 µM
COC1=C(C2=C(I)C(=O)c3ccccc3C2=O)C(=O)c2ccc3c(c2C1=O)C=CC(C)(C)O3 | CEM | MTT | 6.3 µM
Nc1ccn([C@@H]2CC[C@H](CO)O2)c(=O)n1 | FLOW 2002 | - | 100 µg/mL
O=c1[nH]cnc2c1ncn2CC=C(CO)CO | CCL18 | - | >100 µg/mL
OC[C@H]1O[C@@H](Oc2ccccc2)[C@H](O)[C@@H](O)[C@@H]1O | LLC-MK2 | - | >1000 µM
O=C(NCCCl)Oc1ccc(Br)cc1C(=O)Nc1ccc(C(F)(F)F)cc1 | Mono Mac 6 | MTT | 9.3 µM
Cc1ccc(NC(=O)NCCSCc2ccc(CNC(C)C)o2)cc1Cl | U1 | - | >100 µM
CCC(C)[C@@H]1NC(=O)[C@@H](C(C)C)NC(=O)[C@H](CC(C)C)NC(=O)[C@H](Cc2c[nH]c3ccccc23)NC(=O)CNC(=O)[C@H](CC(N)=O)NC1=O | Colorectal carcinoma cells | MTT | >30 µM
COc1cc2c(cc1[C@@H](C)N[S@@](=O)C(C)(C)C)C=CC(C)(C)O2 | L6 rat skeletal myoblasts | - | 144 µM
COc1ccc2c(c1)C(=O)C(Cl)=C(C1=C(Cl)C(=O)c3ccccc3C1=O)C2=O | CEM | MTT | 12 µM
Nc1ccn([C@@H]2O[C@@H](CO)[C@H](O)[C@H]2O)c(=O)n1 | FLOW 2002 | - | >100 µg/mL
OC(c1ccc2ccccc2n1)C1CC1 | CEM-4fx | MTT | 20.4 µM
O=c1[nH]c(=O)n([C@H]2C[C@H](O)[C@@H](CO)O2)cc1/C=C/Cl | P3HR-1 | cell count | >70 µM
OC[C@H]1O[C@H](Oc2ccc(Cl)cc2)C[C@@H](O)[C@@H]1O | LLC-MK2 | - | 240 µM
COc1cc([C@@H]2c3cc4c(cc3[C@H](O)[C@H]3COC(=O)[C@H]23)OCO4)cc(OC)c1OC | L6 rat skeletal myoblasts | - | 0.01 µM
Nc1ccn([C@@H]2C[C@@H](O)[C@H](CO)O2)c(=O)n1 | FLOW 2002 | - | >100 µg/mL
Nc1ncnc2c1ncn2CC=C(CO)CO | CCL18 | - | >100 µg/mL
Nc1nc(=O)n([C@@H]2O[C@@H](CO)[C@H](O)[C@H]2F)cc1I | FLOW 2002 | - | 100 µg/mL
O=C(Nc1cccc(-c2n[nH]c(=O)n2C2CCCCC2)c1)Nc1ccc(F)c(Cl)c1 | NHDF | - | 14 µM

The last 10 rows once more:

compound	cell line	method	result
COc1ccc2c(c1)C(=O)C(Cl)=C(C1=C(Cl)C(=O)c3ccccc3C1=O)C2=O	CEM	MTT	12 µM
Nc1ccn([C@@H]2O[C@@H](CO)[C@H](O)[C@H]2O)c(=O)n1	FLOW 2002	-	>100 µg/mL
OC(c1ccc2ccccc2n1)C1CC1	CEM-4fx	MTT	20.4 µM
O=c1[nH]c(=O)n([C@H]2C[C@H](O)[C@@H](CO)O2)cc1/C=C/Cl	P3HR-1	cell count	>70 µM
OC[C@H]1O[C@H](Oc2ccc(Cl)cc2)C[C@@H](O)[C@@H]1O	LLC-MK2	-	240 µM
COc1cc([C@@H]2c3cc4c(cc3[C@H](O)[C@H]3COC(=O)[C@H]23)OCO4)cc(OC)c1OC	L6 rat skeletal myoblasts	-	0.01 µM
Nc1ccn([C@@H]2C[C@@H](O)[C@H](CO)O2)c(=O)n1	FLOW 2002	-	>100 µg/mL
Nc1ncnc2c1ncn2CC=C(CO)CO	CCL18	-	>100 µg/mL
Nc1nc(=O)n([C@@H]2O[C@@H](CO)[C@H](O)[C@H]2F)cc1I	FLOW 2002	-	100 µg/mL
O=C(Nc1cccc(-c2n[nH]c(=O)n2C2CCCCC2)c1)Nc1ccc(F)c(Cl)c1	NHDF	-	14 µM

Lines come from different laboratories, so protocols vary. An empty or dashed field is not shown. CCn: concentration that lowers growth or viability of the cells by n%.